For the data set, the system named is norovirus VLPs (GII.4, GII.3, GII.17). As to the kind of experiment: Appearance frequency analysis of sequences after cDNA display in vitro selection against VLPs. The settings on record: among 3447 peptide aptamer sequences obtained after the in vitro selection cycles.

As to “3 (VHSRSSDWLS; Designed peptide) [compound 3]”, the Appearance frequency worked out at 11. Under “7 (KMRAGRSNHA; Designed peptide) [compound 7]” stands 11; under “80 (IESMDGIQHY; Designed peptide) [compound 80]”, 14; under “86 (RDVSHHNDVS; Designed peptide) [compound 86]”, 12. With “92 (GDQFMPFLVV; Designed peptide) [compound 92]” the figure was 10; with “155 (VELFLLTSSC; Designed peptide) [compound 155]”, 42. Under “156 (VVGFGRRSLF; Designed peptide) [compound 156]” stands 19; under “157 (VRFHGWFAHV; Designed peptide) [compound 157]”, 18; under “158 (GARIRARGRD; Designed peptide) [compound 158]”, 17. Regarding “159 (SVVSCVCRAP; Designed peptide) [compound 159]”, the Appearance frequency was 14.

Substance “160 (NRLWRRGMCI; Designed peptide) [compound 160]” yielded an Appearance frequency of 13. With “161 (TVRCRIGHMR; Designed peptide) [compound 161]” the figure was 12; with “162 (YKIRTRRTKR; Designed peptide) [compound 162]”, 12. With “163 (SVMVTRSLFG; Designed peptide) [compound 163]” the figure was 12. Under “164 (SFVKGPSRGI; Designed peptide) [compound 164]” stands 12. In the case of “165 (GSRHKNLIIP; Designed peptide) [compound 165]”, the Appearance frequency amounted to 12. Substance “166 (IGSRTGGFIG; Designed peptide) [compound 166]” yielded an Appearance frequency of 12. With “167 (DDVRSGTISG; Designed peptide) [compound 167]” the figure was 12; with “168 (VTFRNSGRTQ; Designed peptide) [compound 168]”, 11; with “169 (SLQHSTTGCR; Designed peptide) [compound 169]”, 11. With “170 (GTDTFHRSRA; Designed peptide) [compound 170]” the figure was 11.

For the substance “171 (GVIAGSGHDL; Designed peptide) [compound 171]”, the Appearance frequency turned out to be 11.

Turning to “172 (GCVGDLYCSA; Designed peptide) [compound 172]”, the Appearance frequency was determined as 11. With “173 (CRPGVRLGIF; Designed peptide) [compound 173]” the figure was 11; with “174 (VRTHWFGSSR; Designed peptide) [compound 174]”, 10; with “175 (TGPIRDHSSL; Designed peptide) [compound 175]”, 10. Under “176 (VGRASRWHIS; Designed peptide) [compound 176]” stands 10; under “177 (TTSWGVVDSF; Designed peptide) [compound 177]”, 10; under “178 (TVRSLGITSV; Designed peptide) [compound 178]”, 10.

Consider “179 (SKGRHAKRNH; Designed peptide) [compound 179]”, for which the Appearance frequency is 10. Under “180 (RIDHSVHGIL; Designed peptide) [compound 180]” stands 10. Under “181 (NVSHSVRKPI; Designed peptide) [compound 181]” stands 10; under “182 (RRIDDRILGT; Designed peptide) [compound 182]”, 10; under “183 (GSSCVETDGH; Designed peptide) [compound 183]”, 10.

“184 (CWGIKRTSIA; Designed peptide) [compound 184]” yielded an Appearance frequency of 10. Under “185 (ESNGLHLPLR; Designed peptide) [compound 185]” stands 10.

The values above are taken from US12535483B2, “Norovirus-binding peptide” (Kao Corporation, priority 2019, dated 2026).
